Compound potency records, mixed from different reports. Data source: NIAID ChemDB in PubChem.

Common to all: host cell toxicity; cell line: CEM; endpoint: CC50

CCn: concentration that lowers growth or viability of the cells by n%. Conditions beyond the fields shown may differ between rows. a–b is a range or a potency band. An empty or dashed field is not shown.

compound | method | value
COC(=O)[C@H](CO)NC(=O)c1ccccc1SSc1ccccc1C(=O)N[C@@H](CO)C(=O)OC |  | 60 µM
Nc1ccn([C@@H]2CC[C@@H](CO)O2)c(=O)n1 |  | 0.1 µM
COCCCCCCCCCCCC(=O)O |  | 80–190 µM
Nc1nc(N)nc(OC[C@H]2CC[C@@H](CO)O2)n1 |  | >250 µM
O=C(NCc1ccc2c(c1)OCO2)c1cc2cc3c(cc2[nH]1)OCO3 | XTT | >200 µM
COc1cc2ccnc3c2c(c1O)N(C)C=C3 |  | 1.4 µM
O=[N+]([O-])c1ccc(C2ON=C(c3ccccc3)N2C23CC4CC(CC(C4)C2)C3)cc1 |  | 170 µM
CC(C)c1c(Cc2ccccc2)n(COCc2ccc(/C(O)=C/C(=O)C(=O)O)cc2)c(=O)[nH]c1=O |  | >10 µM
NC/C=C/Cn1cc(C(F)(F)F)c(=O)[nH]c1=O | cell count | 50 µM
COc1cc2c3c(ccnc3c1OC)NC=C2 |  | 3.3 µM
COC(=O)Cc1cn([C@@H]2C=C[C@H](CO)O2)c(=O)[nH]c1=O | MTT | >100 µM
O=C1c2ccccc2C(=O)N1C/C=C/Cn1cc(F)c(=O)[nH]c1=O | cell count | >50 µM
CC[C@H](C)[C@@H](/C=C/C(=O)O)NC(=O)c1ccccc1SSc1ccccc1C(=O)N[C@H](/C=C/C(=O)O)[C@@H](C)CC |  | 70 µM
Nc1cc(OC[C@H]2CC[C@@H](COCc3ccccc3)O2)nc(N)n1 |  | >250 µM
NC/C=C/Cn1ccc(=O)[nH]c1=O | cell count | >50 µM
CC1=C(/C=C/C(C)=C/C=C/C(C)=C/C(=O)O)C(C)(C)CCC1 | MTT | >1 µM
Cc1cn([C@@H]2O[C@H](C3CO[Si](C(C)C)(C(C)C)O[Si](C(C)C)(C(C)C)O3)C3(OS(=O)(=O)C=C3N)[C@H]2O[Si](C)(C)C(C)(C)C)c(=O)[nH]c1=O |  | 53.1 µM
COc1ccc(CCNC(=O)c2cc3cc4c(cc3[nH]2)OCO4)cc1OC | XTT | >200 µM
Nc1cc(OC[C@@H]2O[C@H](CO)[C@@H](O)[C@H]2O)nc(N)n1 |  | >250 µM
NC(=O)CCNC(=O)c1ccccc1SCc1ccc(OP2(=O)OCc3ccccc3O2)cc1 | XTT | >50 µM
COc1cc(OC[C@H]2CC[C@@H](CO)O2)ncn1 |  | >50 µM
CC(C)C[C@@H](CC(=O)O)NC(=O)c1ccccc1SSc1ccccc1C(=O)N[C@H](CC(=O)O)CC(C)C |  | 92 µM
Nc1nc(N)nc(OC[C@H]2CC[C@@H](COCc3ccccc3)O2)n1 |  | >250 µM
S=c1[nH]c(=S)c2c3c(sc2[nH]1)CCCCC3 |  | >100 µM
O=C1c2ccccc2C(=O)N1CC1OC1CCl | cell count | >50 µM
COC(=O)[C@H](CC(C)C)NC(=O)c1ccccc1SSc1ccccc1C(=O)N[C@@H](CC(C)C)C(=O)OC |  | >100 µM
Nc1nc(Cl)cc(OC[C@H]2CC[C@@H](COCc3ccccc3)O2)n1 |  | 110 µM
Cc1cn([C@@H]2O[C@H](C(COC(=O)c3ccccc3)OC(=O)c3ccccc3)C3(OS(=O)(=O)C=C3N)[C@H]2O[Si](C)(C)C(C)(C)C)c(=O)[nH]c1=O |  | 3.9 µM
O=C(Cc1cn([C@H]2C=C[C@@H](CO)O2)c(=O)[nH]c1=O)NCCCCCCCCCCNC(=O)c1c2ccccc2nc2ccccc12 | MTT | >10 µM
c1ccc(COC[C@@H]2CC[C@H](COc3ncnc4nc[nH]c34)O2)cc1 |  | 13 µM
CC(C)C(N)C(=O)O[C@@H](C[C@@H](Cc1ccccc1)C(=O)N[C@H]1c2ccccc2C[C@H]1O)CN1CCN(Cc2cccnc2)C[C@H]1C(=O)NC(C)(C)C | MTT | >100 µM
O=C(NCCCc1cn([C@H]2C=C[C@@H](CO)O2)c(=O)[nH]c1=O)C(F)(F)F | MTT | >100 µM
CC(C)[C@@H](/C=C/CO)NC(=O)c1ccccc1SSc1ccccc1C(=O)N[C@H](/C=C/CO)C(C)C |  | 9 µM
O=C(NCCc1ccccc1)c1cc2cc(O)c(O)cc2[nH]1 | XTT | 24 µM
COc1cc2cc[n+](C)c3c2c(c1OC)NC=C3 |  | 60.3 µM
c1ccc(C2=NOC(c3ccccc3)N2C23CC4CC(CC(C4)C2)C3)cc1 |  | >200 µM
CC(=O)Nc1nc2c(ncn2C/C=C\CN2C(=O)c3ccccc3C2=O)c(=O)[nH]1 | cell count | >50 µM
O=C(NCc1ccc(O)c(O)c1)c1cc2cc(O)c(O)cc2[nH]1 | XTT | 33 µM
CCCCCCCCS(=O)(=O)Oc1c(OC)cc2ccnc3c2c1N(C)C=C3 |  | 1.3 µM
Cc1cccc(C2ON=C(c3ccccc3)N2C23CC4CC(CC(C4)C2)C3)c1 |  | 48 µM
COC(=O)Cc1cn([C@@H]2C=C[C@H](COP(=O)(N[C@@H](C)C(=O)OC)Oc3ccccc3)O2)c(=O)[nH]c1=O | MTT | >100 µM
CCCCCCCCCCCCN1C=Cc2nccc3cc(OC)c(OC)c1c23 |  | <1 µM
O=C(NCCCN1CCN(CCCNC(=O)c2cc3cc(O)c(O)cc3[nH]2)CC1)c1cc2cc(O)c(O)cc2[nH]1 | XTT | 88 µM

The last 5 rows once more:

compound | method | value
CCCCCCCCS(=O)(=O)Oc1c(OC)cc2ccnc3c2c1N(C)C=C3 |  | 1.3 µM
Cc1cccc(C2ON=C(c3ccccc3)N2C23CC4CC(CC(C4)C2)C3)c1 |  | 48 µM
COC(=O)Cc1cn([C@@H]2C=C[C@H](COP(=O)(N[C@@H](C)C(=O)OC)Oc3ccccc3)O2)c(=O)[nH]c1=O | MTT | >100 µM
CCCCCCCCCCCCN1C=Cc2nccc3cc(OC)c(OC)c1c23 |  | <1 µM
O=C(NCCCN1CCN(CCCNC(=O)c2cc3cc(O)c(O)cc3[nH]2)CC1)c1cc2cc(O)c(O)cc2[nH]1 | XTT | 88 µM